Anti-infective test results gathered from many reports (values: NIAID ChemDB through PubChem).

Shared fields: cytotoxicity tests; cells: PBMC; measure: CC50

CCn: concentration that lowers growth or viability of the cells by n%. Rows are shuffled and stem from different studies. a–b is a range or a potency band. Blank or dashed fields: not listed here.

compound | read by | value
Nc1nncc2c([C@H]3CC[C@@H](/C=C/P(=O)(O)O)C3(F)F)c[nH]c12 | MTT / absorbance | 45 µM
Nc1ccn([C@H]2CC[C@@H](CO)O2)c(=O)n1 | XTT | >10 µM
CCCc1cc(=O)oc2c3c(c4c(c12)OC(C)(C)C=C4)O[C@H](C)[C@@H](C)[C@@H]3O | - | 10–20 µM
Fc1ccccc1CCNC(=S)Nc1ccc(Br)cn1 | - | >100 µM
Cc1cn([C@H]2C[C@H](N=[N+]=[N-])[C@@H](COC(=O)C(=O)O)O2)c(=O)[nH]c1=O | sulforhodamine | 300 µM
Cc1cccc(Cn2c(=O)ccn(CC#N)c2=O)c1 | - | 302 µM
CC(C)C(Cc1ccccc1)NC(=O)C[C@@H]1O[C@@H]1[C@H](Cc1ccccc1)NC(=O)[C@@H](NC(=O)OCC1CC1)C(C)(C)S(C)(=O)=O | - | >10 µM
C#C[C@]1(CO)O[C@@H](n2cnc3c(N)ncnc32)C=C1F | - | >100 µM
Cc1cn([C@H]2C[C@H](N=[N+]=[N-])[C@@H](COC(=O)C(=O)N[C@H](C(=O)O)C(C)C)O2)c(=O)[nH]c1=O | trypan blue | 100 µM
CC(C)CCCC(C)(C)c1ccc(O)cc1O | XTT | 44.6 µM
CCCCCCCC/C=C\CCCCCCCC(=O)NCCCOc1c(Br)cc(CCNC(=O)CCCCCCCCCCCCC(C)C)cc1Br | - | >100 µM
CCCc1cc(=O)oc2c3c(c4c(c12)OC(C)(C)C=C4)O[C@@H](C)[C@H](C)[C@@H]3O | - | 10–20 µM
CC(C)OC(=O)N[C@H](C(=O)N[C@@H](Cc1ccccc1)[C@H]1O[C@H]1CC(=O)NC(Cc1ccccc1)C(C)C)C(C)(C)S(C)(=O)=O | - | >10 µM
CO[C@H]1/C=C/O[C@@]2(C)Oc3c(C)c(O)c4c(O)c(c5c(c4c3C2=O)NC2(CCN(CC(C)C)CC2)N=5)=NC(=O)/C(C)=C\C=C\[C@H](C)[C@H](O)[C@@H](C)[C@@H](O)[C@@H](C)[C@H](OC(C)=O)[C@@H]1C | - | >120 µg/mL
Cc1cn([C@H]2C[C@H](N=[N+]=[N-])[C@@H](CO)O2)c(=O)[nH]c1=O | - | >10 µM
CC(=O)O[C@@]12C[C@@H](C)[C@@]3(O)[C@@H](C=C(CO)C[C@]4(O)C(=O)C(C)=C[C@@H]34)[C@@H]1C2(C)C | trypan blue | >0.25 µM
CNc1cccc(CCNC(=O)NCc2ccc(Cl)c(Cl)c2)n1 | - | 50 µM
COc1cc(Cn2c(=O)ccn(CC#N)c2=O)cc(OC)c1OC | - | >377 µM
Nc1nc(=O)n([C@@H]2CS[C@H](CO)O2)cc1F | - | >100 µM
O=C(CO)N[C@@H]([C@@H](O)[C@H](O)[C@H](O)CO)[C@@H](O)C(=O)C(=O)O | - | >1000 µM
CC(C)C(Cc1ccccc1)NC(=O)C[C@@H]1O[C@@H]1[C@H](Cc1ccccc1)NC(=O)[C@@H](NC(=O)C1=CC(=O)CC(C)(C)O1)C(C)(C)S(C)(=O)=O | - | >10 µM
Cc1cc(C)cc(Cn2ccc(=O)n(Cc3cc(C)cc(C)c3)c2=O)c1 | - | >206 µM
Cc1cn([C@H]2C[C@H](N=[N+]=[N-])[C@@H](COC(=O)C(=O)NC(Cc3ccccc3)C(=O)O)O2)c(=O)[nH]c1=O | trypan blue | 100 µM
Cc1cn([C@H]2C[C@H](N=[N+]=[N-])[C@@H](CO)O2)c(=O)[nH]c1=O | - | >100 µM
Cc1cn([C@H]2C[C@H](N=[N+]=[N-])[C@@H](CO)O2)c(=O)[nH]c1=O | MTT | >5 µM
C#CCn1ccc(=O)n(Cc2cc(C)cc(C)c2)c1=O | - | 295 µM
NC(=O)CC(NC(=O)c1ccc2ccccc2n1)C(=O)N[C@@H](Cc1ccccc1)[C@H]1O[C@H]1CNS(=O)(=O)c1ccc(N)cc1 | - | >10 µM
NC(=O)c1cc2c(-c3ccc4c(c3)CCO4)cncc2s1 | MTT | 32.3 µM
CN(CCc1ccc2c(n1)NCCC2)C(=O)Oc1ccc(C(F)(F)F)cc1 | - | 4.7 µM
CC(=O)SCCOP(=O)(OCCSC(C)=O)OC[C@@H]1CC[C@H](n2cnc3c(N)ncnc32)O1 | - | 1.1 µM
CC(C)[C@H](NC(=O)c1ccc2ccccc2n1)C(=O)N[C@@H](Cc1ccccc1)[C@H](O)CN1CC[C@@H](OCc2ccncc2)C[C@H]1C(=O)NC(C)(C)C | MTT | 33 µM
CC[C@H](C)[C@H](NC(=O)C(=O)OC[C@H]1O[C@@H](n2cc(C)c(=O)[nH]c2=O)C[C@@H]1N=[N+]=[N-])C(=O)O | sulforhodamine | 400 µM
COc1ccc(C(C)(C)CCCC(C)C)c(OC)c1O | XTT | 50.9 µM
N#CCn1ccc(=O)n(Cc2cc(Cl)cc(Cl)c2)c1=O | - | 214 µM
Nc1ncnc2c1ncn2CCOCP(=O)(O)O | - | >100 µM
Cc1ccc(C)c(Cn2c(=O)ccn(CC#N)c2=O)c1 | - | >464 µM
CC(C)=CCOc1cc(NC(=S)c2ccoc2C)ccc1Cl | - | 619.5 µM
S=C(NCCc1ccccn1)Nc1ccc(Br)cn1 | - | >100 µM
CCCCCCCCCCCCSCC(COP(=O)([O-])OCC[N+](C)(C)C)OCCCCCCCCO | trypan blue | >100 µM
COc1cc(-c2c3nc(c(-c4cc(OC)c(OC)c(OC)c4)c4ccc([n-]4)c(-c4cc(OC)c(OC)c(OC)c4)c4ccc([n-]4)c(-c4cc(OC)c(OC)c(OC)c4)c4nc2C=C4)C=C3)cc(OC)c1OC.[O]=[V+2] | MTT | >50 µM
Cc1cc(Cl)nc(C)c1C(=O)NCC[C@@H](C)N1CCC(N(Cc2ccsc2)C(=O)Nc2ccc(C(O)O)cc2)CC1 | - | >32.2 µM

Repeating the first 6 entries:

Nc1nncc2c([C@H]3CC[C@@H](/C=C/P(=O)(O)O)C3(F)F)c[nH]c12 ; read by: MTT / absorbance ; value: 45 µM
Nc1ccn([C@H]2CC[C@@H](CO)O2)c(=O)n1 ; read by: XTT ; value: >10 µM
CCCc1cc(=O)oc2c3c(c4c(c12)OC(C)(C)C=C4)O[C@H](C)[C@@H](C)[C@@H]3O ; value: 10–20 µM
Fc1ccccc1CCNC(=S)Nc1ccc(Br)cn1 ; value: >100 µM
Cc1cn([C@H]2C[C@H](N=[N+]=[N-])[C@@H](COC(=O)C(=O)O)O2)c(=O)[nH]c1=O ; read by: sulforhodamine ; value: 300 µM
Cc1cccc(Cn2c(=O)ccn(CC#N)c2=O)c1 ; value: 302 µM